A mixed list of measured activities; the numbers were collected in NIAID ChemDB.

Shared fields: tests on isolated targets; organism: HIV-1; target: Reverse transcriptase

ICn: concentration for n% inhibition. Neighbouring rows are from separate reports. An empty or dashed field is not shown. Two numbers with a dash give a range or band. Fold resistance: result on the changed form divided by that on wild type.

{"SMILES": "FC(F)(F)Cc1nnc2c3ccccc3c(N3CCc4ccccc4C3)nn12", "strain": "KER2008", "method": "RT activity / fluorescence", "read-out": "IC90", "result": "2.54 µM"}
{"SMILES": "CCN1c2ncc(CCOc3ccc(C(=O)O)c4c3CCC4)cc2C(=O)N(C)c2ccc(Cl)nc21", "changes": "RT-K103N Y181C", "method": "nucleotide incorporation / radiometric", "read-out": "fold resistance", "result": "1"}
{"SMILES": "CCN1c2ncc(CCOc3ccc(-c4ccccc4)cc3)cc2C(=O)N(C)c2cccnc21", "strain": "IIIB", "changes": "RT-K103N Y181C", "method": "nucleotide incorporation / radiometric", "read-out": "fold resistance", "result": ">1"}
{"SMILES": "CC(C)(C#Cc1ccc(NC(=O)CSc2nnnn2-c2ccc(C3CC3)cc2Cl)c(Cl)c1)COC(N)=O", "changes": "RT-K103 Y181C", "method": "PicoGreen / fluorescence", "read-out": "IC50", "result": "<1 µM"}
{"SMILES": "CCc1cc(NCc2nc3c(C)ccc(C)c3o2)c(=O)[nH]c1C", "changes": "RT-Y181W", "method": "nucleotide incorporation", "read-out": "fold resistance", "result": "6.3"}
{"SMILES": "CC(C)(C#Cc1ccc(NC(=O)CSc2nnnn2-c2cc(Br)ccc2Cl)c(Cl)c1)C(=O)O", "strain": "WT", "method": "PicoGreen / fluorescence", "read-out": "IC50", "result": "<1 µM"}
{"SMILES": "CCN1c2ncc(CCOc3ccc(/C=C(\\C)C(=O)O)c4ccccc34)cc2C(=O)N(C)c2cccnc21", "changes": "RT-K103N Y181C", "method": "nucleotide incorporation / radiometric", "read-out": "fold resistance", "result": "1–10"}
{"SMILES": "C=CC#Cc1ccc(NC(=O)CSc2nnnn2-c2ccc(C3CC3)cc2Cl)c(Cl)c1", "strain": "WT", "method": "PicoGreen / fluorescence", "read-out": "IC50", "result": "<1 µM"}
{"SMILES": "CCN1c2ncc(CCOc3ccc(NC(=O)c4ccccc4C(=O)O)cc3C)cc2C(=O)N(C)c2cccnc21", "strain": "IIIB", "changes": "RT-K103N Y181C", "method": "nucleotide incorporation / radiometric", "read-out": "fold resistance", "result": ">2"}
{"SMILES": "CC(C)(N)C#Cc1ccc(NC(=O)CSc2nnnn2-c2cc(C3CC3)cc(C(F)(F)F)c2Cl)c(Cl)c1F", "strain": "WT", "method": "PicoGreen / fluorescence", "read-out": "IC50", "result": "<1 µM"}
{"SMILES": "CCN1c2ncc(CCOc3ccc(-c4ccc(C(=O)O)s4)cc3C)cc2C(=O)N(C)c2cccnc21", "strain": "IIIB", "changes": "RT-K103N Y181C", "method": "nucleotide incorporation / radiometric", "read-out": "fold resistance", "result": "1"}
{"SMILES": "Cc1cc(C)c(-n2nnnc2SCC(=O)Nc2ccc(C#CC(C)(C)O)cc2Cl)c(Cl)c1", "strain": "WT", "method": "PicoGreen / fluorescence", "read-out": "IC50", "result": "<1 µM"}
{"SMILES": "O=c1cc(Cc2ccccc2)nc(NCCCCO)[nH]1", "changes": "RT-L100I", "read-out": "Ki", "result": "525 µM"}
{"SMILES": "CCN1c2ncc(CCOc3ccc(CCC(=O)O)c4ccccc34)cc2C(=O)N(C)c2ccc(F)nc21", "changes": "RT-V106A", "method": "nucleotide incorporation / radiometric", "read-out": "fold resistance", "result": ">10"}
{"SMILES": "CC(C)(C#Cc1ccc(NC(=O)CSc2nnnn2-c2cc(C3CC3)ccc2Cl)c(Cl)c1F)OCCN1CCNCC1", "strain": "WT", "method": "PicoGreen / fluorescence", "read-out": "IC50", "result": "<1 µM"}
{"SMILES": "Cc1c(N2CCc3ccccc3C2)nn2c(C)nnc2c1C", "strain": "98US_MSC5016", "method": "RT activity / fluorescence", "read-out": "IC90", "result": "86.1 µM"}
{"SMILES": "CC(C)(C)c1ccc(-n2nnnc2SCC(=O)Nc2ccc(NC(=O)Cc3cccc[n+]3[O-])cc2Cl)c(Cl)c1", "changes": "RT-K103 Y181C", "method": "PicoGreen / fluorescence", "read-out": "IC50", "result": "<1 µM"}
{"SMILES": "CCN1c2ncc(CCOc3ccc(S(=O)(=O)NCC(=O)O)cc3C)cc2C(=O)N(C)c2cccnc21", "strain": "IIIB", "changes": "RT-K103N Y181C", "method": "nucleotide incorporation / radiometric", "read-out": "IC50", "result": "<0.05 µM"}
{"SMILES": "Cc1ccc(-n2nnnc2SCC(=O)Nc2ccc(-c3ccc(O)cc3)cc2Cl)c(Cl)c1", "changes": "RT-K103 Y181C", "method": "PicoGreen / fluorescence", "read-out": "IC50", "result": "<1 µM"}
{"SMILES": "CCN1c2ncc(CCOc3ccc(N(Cc4ccc(C(=O)O)cc4)C(C)=O)cc3C)cc2C(=O)N(C)c2cccnc21", "strain": "IIIB", "changes": "RT-K103N Y181C", "method": "nucleotide incorporation / radiometric", "read-out": "fold resistance", "result": ">1"}
{"SMILES": "CC(C)(C#Cc1ccc(NC(=O)CSc2nnnn2-c2ccc(C3CC3)cc2Cl)c(Cl)c1F)NC(=O)c1cc[n+]([O-])cc1", "changes": "RT-K103 Y181C", "method": "PicoGreen / fluorescence", "read-out": "IC50", "result": "<1 µM"}
{"SMILES": "FC(F)c1nnc2c3ccccc3c(N3CCc4ccccc4C3)nn12", "strain": "IIIB", "method": "RT activity / fluorescence", "read-out": "IC90", "result": "0.98 µM"}
{"SMILES": "COC(=O)NCCCCNc1nc(Cc2ccccc2)c(C)c(=O)[nH]1", "changes": "RT-Y181I", "read-out": "Ki", "result": ">1000 µM"}
{"SMILES": "CC(C)(C)c1ccc(-n2nnnc2SCC(=O)Nc2ccc(C#CCCC(=O)O)cc2Cl)c(Cl)c1", "changes": "RT-K103 Y181C", "method": "PicoGreen / fluorescence", "read-out": "IC50", "result": "<1 µM"}
{"SMILES": "CCN1c2ncc(CCOc3ccc(-c4ccc(CCC(=O)O)o4)cc3C)cc2C(=O)N(C)c2cccnc21", "strain": "IIIB", "changes": "RT-K103N Y181C", "method": "nucleotide incorporation / radiometric", "read-out": "fold resistance", "result": ">2"}
{"SMILES": "CCN1c2ncc(CCOc3ccc(CC(=O)O)c4c3CCCC4)cc2C(=O)N(C)c2ccc(F)nc21", "changes": "RT-K103N Y181C", "method": "nucleotide incorporation / radiometric", "read-out": "fold resistance", "result": "1–10"}
{"SMILES": "CCN1c2ncc(CCOc3ccc(C(=O)Nc4ccc[n+]([O-])c4)cc3C)cc2C(=O)N(C)c2cccnc21", "strain": "IIIB", "changes": "RT-K103N Y181C", "method": "nucleotide incorporation / radiometric", "read-out": "fold resistance", "result": "1"}
{"SMILES": "CCN1c2ncc(CCOc3ccc(CCC(=O)O)c4ccccc34)cc2C(=O)Nc2c(C)cc(Cl)nc21", "changes": "RT-V106A", "method": "nucleotide incorporation / radiometric", "read-out": "fold resistance", "result": "1–10"}
{"SMILES": "Cc1nnc2c3ccccc3c(N3CCc4cc(O)c(O)cc4C3)nn12", "strain": "KER2008", "method": "RT activity / fluorescence", "read-out": "IC90", "result": "2.78 µM"}
{"SMILES": "CN(CCc1cc[n+]([O-])cc1)C(=O)COc1ccc(NC(=O)CSc2nnnn2-c2ccc(C3CC3)cc2Cl)c(Cl)c1", "changes": "RT-K103 Y181C", "method": "PicoGreen / fluorescence", "read-out": "IC50", "result": "<1 µM"}
{"SMILES": "COc1cccc(-c2nnc3c4ccccc4c(N4CCc5ccccc5C4)nn23)c1", "strain": "IIIB", "method": "RT activity / fluorescence", "read-out": "IC90", "result": ">100 µM"}
{"SMILES": "Cc1c(Cc2ccccc2)nc(NCCCCN)[nH]c1=O", "changes": "RT-Y181L", "read-out": "Ki", "result": ">1000 µM"}
{"SMILES": "Cc1nnc2c3ccccc3c(N3CCc4ccc(N)cc4C3)nn12", "strain": "IIIB", "method": "RT activity / fluorescence", "read-out": "IC90", "result": "3.15 µM"}
{"SMILES": "CCN1c2ncc(CCOc3ccc(-c4ccc(C(=O)O)c(C)c4)cc3C)cc2C(=O)N(C)c2cccnc21", "strain": "IIIB", "method": "nucleotide incorporation / radiometric", "read-out": "IC50", "result": "<0.05 µM"}

Repeating the final 2 entries:

SMILES | strain | changes | method | read-out | result
Cc1nnc2c3ccccc3c(N3CCc4ccc(N)cc4C3)nn12 | IIIB |  | RT activity / fluorescence | IC90 | 3.15 µM
CCN1c2ncc(CCOc3ccc(-c4ccc(C(=O)O)c(C)c4)cc3C)cc2C(=O)N(C)c2cccnc21 | IIIB |  | nucleotide incorporation / radiometric | IC50 | <0.05 µM